Laboratory results as given in the NIST ThermoML archive (doi:10.1016/j.jct.2018.04.005).

Key:
[1] = 100 kPa, Liquid, Vibrating tube method
[2] = xn = mol fraction of the nth substance listed; settings: 100 kPa, Liquid, Vibrating tube method

CCCCOP(=O)(OCCCC)OCCCC [tributyl phosphate]
[1]
Settings | mass density [kg/m3]
293.15 K | 976.92
298.15 K | 972.79
303.15 K | 968.59
308.15 K | 964.16
313.15 K | 959.93
318.15 K | 956.18
323.15 K | 951.94

CCCCOP(=O)(OCCCC)OCCCC [tributyl phosphate] + CCCC[n+]1ccn(C)c1.O=S(=O)([N-]S(=O)(=O)C(F)(F)F)C(F)(F)F
mass density [kg/m3], [2]
Settings | x2 = 0.0659 | x2 = 0.137 | x2 = 0.2139 | x2 = 0.2974 | x2 = 0.3884 | x2 = 0.4879 | x2 = 0.5971 | x2 = 0.7175 | x2 = 0.8511
293.15 K | 1009.68 | 1044.63 | 1082.25 | 1121.58 | 1164.45 | 1210.73 | 1260.68 | 1314.9 | 1375.5
298.15 K | 1005.53 | 1040.39 | 1077.87 | 1117.07 | 1159.94 | 1205.98 | 1255.68 | 1309.6 | 1369.84
303.15 K | 1001.37 | 1036.18 | 1073.68 | 1112.92 | 1155.77 | 1201.85 | 1251.66 | 1305.63 | 1366.03
308.15 K | 996.93 | 1031.72 | 1069.25 | 1108.44 | 1151.25 | 1197.24 | 1247.04 | 1301.11 | 1361.36
313.15 K | 992.72 | 1027.43 | 1064.92 | 1104.11 | 1146.79 | 1192.76 | 1242.51 | 1296.33 | 1356.59
318.15 K | 988.96 | 1023.57 | 1061.02 | 1100.24 | 1142.87 | 1188.7 | 1238.42 | 1292.14 | 1352.27
323.15 K | 984.71 | 1019.22 | 1056.6 | 1095.81 | 1138.41 | 1184.09 | 1233.83 | 1287.39 | 1347.43

CCCCOP(=O)(OCCCC)OCCCC [tributyl phosphate] + CCCCn1cc[n+](C)c1.F[B-](F)(F)F
mass density [kg/m3], [2]
Settings | x2 = 0.1158 | x2 = 0.2275 | x2 = 0.3355 | x2 = 0.4399 | x2 = 0.5409 | x2 = 0.6387 | x2 = 0.7333 | x2 = 0.825 | x2 = 0.9138
293.15 K | 997.05 | 1017.74 | 1038.48 | 1060.2 | 1082.55 | 1105.34 | 1128.65 | 1152.49 | 1176.71
298.15 K | 993.14 | 1013.9 | 1034.98 | 1056.79 | 1079.35 | 1102.22 | 1125.69 | 1149.65 | 1174.08
303.15 K | 989.13 | 1009.67 | 1030.66 | 1052.49 | 1075.04 | 1097.96 | 1121.34 | 1145.4 | 1169.51
308.15 K | 984.91 | 1005.38 | 1026.38 | 1048.24 | 1070.94 | 1093.9 | 1117.42 | 1141.61 | 1165.77
313.15 K | 980.71 | 1001.24 | 1022.34 | 1044.17 | 1066.94 | 1090.05 | 1113.55 | 1137.88 | 1162.16
318.15 K | 977.02 | 997.5 | 1018.69 | 1040.49 | 1063.21 | 1086.31 | 1109.86 | 1134.17 | 1158.5
323.15 K | 972.79 | 993.29 | 1014.65 | 1036.54 | 1059.29 | 1082.36 | 1106.1 | 1130.56 | 1154.99

CCCCOP(=O)(OCCCC)OCCCC [tributyl phosphate] + CCCCn1cc[n+](C)c1.F[P-](F)(F)(F)(F)F
mass density [kg/m3], [2]
Settings | x2 = 0 | x2 = 0.0943 | x2 = 0.1898 | x2 = 0.2866 | x2 = 0.3845 | x2 = 0.4838 | x2 = 0.5843 | x2 = 0.6862 | x2 = 0.7894 | x2 = 0.894
293.15 K | 976.92 | 1008.07 | 1040.16 | 1073.81 | 1109.17 | 1146.37 | 1185.43 | 1227.12 | 1271.78 | 1319.74
298.15 K | – | 1003.9 | 1036.19 | 1069.75 | 1105.29 | 1142.27 | 1181.27 | 1223.12 | 1267.68 | 1315.73
303.15 K | 968.59 | 999.76 | 1032.32 | 1065.81 | 1101.31 | 1138.1 | 1177.16 | 1218.81 | 1263.41 | 1311.14
308.15 K | – | 995.49 | 1028.3 | 1062.11 | 1097.75 | 1134.52 | 1174.02 | 1216.07 | 1261.02 | 1308.69
313.15 K | – | 991.31 | 1024.36 | 1058.14 | 1093.87 | 1130.69 | 1170.3 | 1212.26 | 1257.36 | 1304.77
318.15 K | – | 987.58 | 1020.97 | 1054.82 | 1090.64 | 1127.5 | 1167 | 1208.99 | 1253.95 | 1301.47
323.15 K | 951.94 | 983.55 | 1016.95 | 1050.96 | 1086.64 | 1123.66 | 1162.96 | 1205.06 | 1250.04 | 1297.49
